Patent US20040063695A1, “Cystic fibrosis transmembrane conductance regulator protein inhibitors and uses thereof” (priority 2002, published 2004)

Tested on: cholera toxin-induced intestinal fluid secretion
Parameters: species or system mice
Conditions: mouse, in vivo

Substance: 3-[(3-trifluoromethyl)phenyl]-5-[(4-carboxyphenyl)methylene]-2-thioxo-4-thiazolidinone [CFTRinh-172]
- intestinal fluid accumulation (ratio of intestinal weight before vs. after luminal fluid removal): remarkably reduced intestinal fluid accumulation
